# According to publication PMC8515920:
# Amino acid sequences for entries named in this document (tags omitted). A change or cut given only in a name is not applied to a line headed by its entry.
# UniProt P0ACJ8: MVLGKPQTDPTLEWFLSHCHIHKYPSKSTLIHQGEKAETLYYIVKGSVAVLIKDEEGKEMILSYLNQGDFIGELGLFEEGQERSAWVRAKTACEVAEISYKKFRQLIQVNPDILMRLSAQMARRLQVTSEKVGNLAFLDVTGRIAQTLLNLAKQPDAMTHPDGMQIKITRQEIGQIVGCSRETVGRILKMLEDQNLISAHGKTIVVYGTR
# Target: His6-CRP (cAMP receptor protein) (UniProt P0ACJ8)
# Assay: EMSA
# Conditions: 200 uM cAMP, complexes observed using 100 nM His6-CRP; recombinant protein; protein details: His6; label: none (ethidium bromide stain); probe letters rebuilt from the primers and the genome
sequence,measurement,value
TCTCTCCTGGAGAATTAGGAACGTTCACACGCATAAAATCTTCTCTTGAAGAAGAAATTAAAGATCTAAAGAAATGCCGCCAGCTTACCGTGAGATGCTTCTAAGAAAACACCGCAAAACAAGCAACATATAAGCAACACAAACATAACTAAGCGTTGCTTTCAATAGTCTATCTTCGAACCTCACCCTCAGTCAATTTGATTTCCAAAAAAAAATCATATAGCAAAAAATAAAAAACAATCAAAAATAATAACCATAAAAATCAATAACATGTAAAAACATAAATCAAATATAAATTTTTTTGATTGACATAATGCACTCATTGGCGTGCAATATTTGTGCAAACCGTATCGTCTTTCATGTCCAGTAAACAGACAAGGAATAGCACTTTCTCATCGCTTTTTTGTTAAAAAACAAACGAAAAACCTGTTAAATTTCGAGTGAGAGA (double strand) [aroX-npsA intergenic region],binding result,binds

# Construct, isoform or probe ends are uncertain for at least one entry.
